PubChem BioAssay AID1259414, Drosophila RNAi Screening Center, 2018

Purpose: 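Host factors increasing or decreasing Wolbachia levels in cultured fly cells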 (primary screen)
Cell system: Drosophila JW18 cells infected with Wolbachia
Reagent: long dsRNA against Drosophila genes, 0.25 µg dsRNA per well of a 384-well plate
Timing: 5 days
Treatment: cells persistently infected with Wolbachia before knock-down; no added drug
Measurement: 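Imaged fluorescence in situ signal for Wolbachia 23S rRNA per DAPI-counted host cell, given as a robust z-score within each plate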
Reading the numbers: Wolbachia per cell robust z: higher = more Wolbachia per host cell than the plate typical
Active means: 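Active if absolute robust z reaches 1.5 in two or more of three replicates, leaving out multi- or no-target dsRNAs, genes unexpressed in JW18 and A1 wells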
The screen tested about 24,000 reagents; this is an unselected part of those with a known target gene and a result. Of all reagents, about 1,210 (5%) were called active. 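Inactive calls also include excluded dsRNAs with several or no targets, genes unexpressed in JW18, and well A1, regardless of score.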

Gene	DRSC id	Wolbachia per cell robust z, rep 1	Wolbachia per cell robust z, rep 2	Wolbachia per cell robust z, rep 3	call
Csgalnact (Chondroitin sulfate N-acetylgalactosaminyltransferase)	DRSC06228	-0.648	-0.186	-0.0705	inactive
Cap-D3 (Chromosome associated protein D3)	DRSC02349	-0.913	-0.226	0.259	inactive
Cap-D3 (Chromosome associated protein D3)	DRSC27018	-0.997	0.319	-0.114	inactive
CG32523	DRSC20510	-1.98	-0.948	-1.43	inactive
side (sidestep)	DRSC14523	0.151	-0.306	0.465	inactive
side (sidestep)	DRSC14716	0.0897	-0.81	-3.73	inactive
side (sidestep)	DRSC14717	-0.875	0.198	-0.127	inactive
side (sidestep)	DRSC14718	-0.664	-3.51	0.25	inactive
side (sidestep)	DRSC14721	-3.24	-1.43	0.637	inactive
Actbeta (Activin-beta)	DRSC17185	0.893	0.682	1.07	inactive
Actbeta (Activin-beta)	DRSC17217	-0.332	-3.27	-1.94	inactive
Ufc1 (Ubiquitin-fold modifier conjugating enzyme 1)	DRSC07156	0.7	0.635	-0.597	inactive
CG9119	DRSC08620	-0.914	-0.576	-0.116	inactive
CG9119	DRSC25290	0.512	2.3	0.211	inactive
tRNA:Leu-CAA-2-3 (transfer RNA:Leucine-CAA 2-3)	DRSC13633	-0.637	0.321	0.243	inactive
CG17841	DRSC17737	0.156	-2.25	0.991	inactive
CG17841	DRSC28821	0.225	0.333	-2.25	inactive
TTLL4A (Tubulin tyrosine ligase-like 4A)	DRSC02528	-0.033	0.354	-0.863	inactive
TTLL4A (Tubulin tyrosine ligase-like 4A)	DRSC28124	-0.558	-1.18	-0.828	inactive
CG2061	DRSC19348	0.00854	0.635	-1.84	inactive
CG30259	DRSC04164	-0.531	-0.192	-3.83	inactive
CG30259	DRSC04165	0.0486	-0.545	0.963	inactive
Cals (Calsyntenin)	DRSC17196	-0.982	0.917	-0.814	inactive
Cals (Calsyntenin)	DRSC21661	-1.69	0.269	-1.77	active
Pep (Protein on ecdysone puffs)	DRSC11252	0.0286	0.455	0.338	inactive
Pp1-Y2 (Protein phosphatase 1, Y-linked 2)	DRSC21608	-1.04	-0.0975	0.438	inactive

The list goes on; the last 4 above are carried over.
Gene	DRSC id	Wolbachia per cell robust z, rep 1	Wolbachia per cell robust z, rep 2	Wolbachia per cell robust z, rep 3	call
Cals (Calsyntenin)	DRSC17196	-0.982	0.917	-0.814	inactive
Cals (Calsyntenin)	DRSC21661	-1.69	0.269	-1.77	active
Pep (Protein on ecdysone puffs)	DRSC11252	0.0286	0.455	0.338	inactive
Pp1-Y2 (Protein phosphatase 1, Y-linked 2)	DRSC21608	-1.04	-0.0975	0.438	inactive
Odc1 (Ornithine decarboxylase 1)	DRSC07482	-0.28	-2.89	-2.37	inactive
Odc1 (Ornithine decarboxylase 1)	DRSC29610	-0.559	0.014	0.707	inactive
Vti1a (Vesicle transport through interaction with t-SNAREs 1a)	DRSC08563	0.195	-0.391	-0.649	inactive
CG42613	DRSC13332	-1.34	-0.108	-2.82	inactive
CG42613	DRSC14769	-4.44	0.538	-0.0511	inactive
CG42613	DRSC15802	0.229	-0.414	-0.134	inactive
CG42613	DRSC22613	0.889	0.661	1.71	inactive
CG42613	DRSC25089	-1.99	-1.64	-0.447	active
CG42613	DRSC26862	-0.127	-1.9	-0.0262	inactive
AANATL3 (Arylalkylamine N-acetyltransferase-like 3)	DRSC02089	0.103	-0.0599	-1.21	inactive
CG34174	DRSC00101	0.485	1	0.35	inactive
nvd (neverland)	DRSC22139	1.04	0.935	0.184	inactive
nvd (neverland)	DRSC26328	1.32	0.569	1.52	inactive
SCOT (Succinyl-CoA:3-ketoacid CoA transferase)	DRSC08186	-1.87	1.46	0.871	inactive
SCOT (Succinyl-CoA:3-ketoacid CoA transferase)	DRSC26521	-0.513	-1.02	0.395	inactive
Gr22a (Gustatory receptor 22a)	DRSC22283	0.788	0.684	-0.154	inactive
Gr22a (Gustatory receptor 22a)	DRSC26809	1.31	1.25	-1.29	inactive
knk (knickkopf)	DRSC15993	-4.73	0.895	-5.67	inactive
Vps13B (Vacuolar protein sorting 13B)	DRSC15060	-0.365	-5.12	-3.47	active
ste24a (prenyl protease type I)	DRSC07314	-0.545	0.232	0.34	inactive
ste24a (prenyl protease type I)	DRSC26491	-0.871	-0.739	-0.222	inactive
